Target: T1, LongSpyTag-AP205-LongSpyTag (bacteriophage AP205)
T1 chain: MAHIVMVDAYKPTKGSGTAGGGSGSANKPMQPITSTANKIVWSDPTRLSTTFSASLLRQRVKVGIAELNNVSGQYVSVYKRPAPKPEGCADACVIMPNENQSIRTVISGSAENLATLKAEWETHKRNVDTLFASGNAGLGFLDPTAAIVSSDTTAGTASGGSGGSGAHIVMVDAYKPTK

B1: HIS-GMZ2ggsSpyCatcher (other)
chain: GSTSENRNKRIGGPKLRGNVTSNIKFPSDNKGKIIRGSNDKLNKNSEDVLEQSEKSLVSENVPSGLDIDDIPKESIFIQEDQEGQTHSELNPETSEHSKDLNNNGSKNESSDIISENNKSNKVQNHFESLSDLELLENSSQDNLDKDTISTEPFPNQKHKDLQQDLNDEPLEPFPTQIHKDYKEKNLINEEDSEPFPRQKHKKVDNHNEEKNVFHENGSANGNQGSLKLKSFDEHLKDEKIENEPLVHENLSIPNDPIEQILNQPEQETNIQEQLYNEKQNVEEKQNSQIPSLDLKEPTNEDILPNHNPLENIKQSESEINHVQDHALPKENIIDKLDNQKEHIDQSQHNINVLQENNINNHQLEPQEKPNIESFEPKNIDSEIILPENVETEEIIDDVPSPKHSNHETFEEETSESEHEEAVSEKNAHETVEHEETVSQESNPEKADNDGNVSQNSNNELNENEFVESEKSEHEARSKAKEASSYDYILGWEFGGGVPEHKKEENMLSHLYVSSKDKENISKENDDVLDEKEEEAEETEEEELEEKNEEETESEISEDEEEEEEEEEKEEENDKKKEQEKEQSNENNDQKKDMEAQNLISKNQNNNEKNVKEAAESIMKTLAGLIKGNNQIDSTLKDLVEELSKYFKNHGGSGAMVDTLSGLSSEQGQSGDMTIEEDSATHIKFSKRDEDGKELAGATMELRDSSGKTISTWISDGQVKDFYLYPGKYTFVETAAPDGYEVATAITFTVNEQGQVTVNGKATKGDAHI
notes: also called GMZ2: SpyC; A7
B1: binds.

From patent publication US20200115420A1 (UNIVERSITY OF COPENHAGEN, published 2020)
